Laboratory results: patent US5552405A, “Substituted pyrrolidine derivatives as HIV protease inhibitors” (Bio-Mega/Boehringer Ingelheim Research, Inc., priority 1995, dated 1996)
The match of structure and compound is tentative.

Molecular target: HIV protease (Human immunodeficiency virus type 1 group M subtype B, UniProt P04585)
Test: Recombinant HIV Protease HPLC Assay
Settings: read-out: IC50, concentration of the test compound which causes a 50% inhibition of the HIV-protease; recombinant HIV protease expressed in E. coli; substrate VSFNFPQITL-NH2; pH 5.5; 37°, 30 min
Text: The procedure is based on the capacity of the test compound to inhibit enzymatic cleavage by HIV protease of a decapeptide (the substratel having an amino acid sequence which includes a known HIV protease cleavage site of a HIV polyprotein; see H. G. Krausslich et al., Proc. Natl. Acad. Sci. U.S.A., 86, 807 (1989). Details of this assay together with the results obtained for exemplified compounds of formula 1 are described in the examples hereinafter.
Enzyme: HIV protease was expressed in E. coli {construct pBRT1 prt^+, see W. G. Farmerie et al., Science, 236, 305 (1987)}, according to the following protocol: Unless stated otherwise, all solutions are aqueous solutions.
E. coli cells containing the pBRT1 prt^+ plasmid were used to inoculate a seed culture media composed of Luria-Bertani Broth containing 100 μg/mL of ampicillin. Flasks were incubated at 37° under agitation for 17 h. Production flasks containing sterile M9 broth, supplemented with 100 μg/mL of ampicillin, were inoculated at a level of 1% (v/v) using the seed culture described above. Total volume in each production flask was 500 mL in a 2 L Erlenmeyer flask. Flasks were incubated at 37° under agitation until a cell concentration corresponding to an optical density (λ=540 μm) of 0.6 was reached (no dilution). This time span was routinely 3-4 h. […]

CC(C)[C@H](NC(=O)OCc1ccccc1)C(=O)N[C@@H](Cc1ccccc1)[C@H](O)CN1C[C@@H](OCc2ccccc2)C[C@H]1C(=O)NC(C)(C)C
IC50: 150 nM
